Assay results from publication PMC4644190, “Optimizing Nanoplasmonic Biosensor Sensitivity with Orientated Single Domain Antibodies” (Plasmonics (Norwell, Mass.), 2015).

Target: ricin (Ricinus communis (species ; …, UniProt P02879)
Assay: LSPR imaging

| Binder | LSPRi saturation response to 100 nM ricin, relative to the C8 surface [% greater] | binding result |
| --- | --- | --- |
| C8-zip (genetic fusion of the C8 sdAb with a positively charged leucine zipper) (VHH) VHH: EVQLQASGGGLVQGGDSLRLSCAASGRTLGDYGVAWFRQAPGKEREFVSVISRSTIITDYANSVKGRFTISRDNAKNAVYLQMNSLKPEDTAVYYCAVIANPVYATSRNSDDYGHWGQGTQVTVSS | 104 | – |
|  (VHH) VHH: EVQLQASGGGLVQDGGSLRLSCAVAGRPLSDYGVGWFRQASGKEREFVAVISGSGIVTDYANSVKGRFTISRDVAKNVVHLQMNSLKPEDTAVYYCAALTNPVYAASRNSNDYGYWGQGTQVTVSS | – | binds |
